Test results: patent US20250188078A1, “SMALL MOLECULE INHIBITORS OF THE CRL4 UBIQUITIN LIGASE” (Cornell University, priority 2022, published 2025)

Test system: CUL4A-Vpr-dependent UNG2 degradation in Hela DOX-inducible-Vpr cells
Experiment: DOX-induced Vpr-mediated CUL4-dependent UNG2 degradation (Western blot)
Conditions: FIG. 6C
Protocol: FIG. 6C. Inhibition of DOX-induced Vpr-mediated CUL4-dependent UNG2 degradation by small molecule CUL4 inhibitors. In brief, Hela DOX-inducible-Vpr cells were seeded in 6-well plates. After 24 hours incubation, medium was changed to growth medium with 75 ng/ml doxycycline (DOX) overnight. On the third day, DMSO or indicated concentrations of compounds in serum-free medium containing DOX were added. The cells were lysed in buffer containing 150 mM NaCl, 1% SDS, 10 mM Tris-HCl (pH 6.8), 1× complete protease inhibitor cocktail and 10 U Benzo nuclease. Equal amounts of proteins were resolved on 9% SDS-PAGE gel and UNG2 levels were detected using anti-UNG2 (2C12) antibody (Origene #TA503563). α-tubulin (Proteintech, #66031-1-Ig) was used as an internal control. Normalized UNG2/α-tubulin ratio is higher in the compound treated sample than DMSO treated sample. (−) means that no change happens between compound treated sample with control sample.

`CN(c1ccc(-c2nc(C(=O)O)cc3c2[nH]c2ccccc23)cc1)S(=O)(=O)c1ccccc1` was tested, and the “Inhibition of CUL4A-Vpr-dependent UNG2 degradation” value was “robust inhibition”.
